{"source": "PubChem BioAssay AID2391", "about": "(Southern Research Specialized Biocontainment Screening …, 2010)", "note": "Some of the results follow. Entries with a potency or affinity are not part of this list. Active and inactive are the calls of the source. No rule for the calls is given here."}
{"assay": "RSV antiviral activity via CPE protection, HEp-2 cells, primary 10 µM value included (AID 2391)", "settings": "RSV-induced CPE inhibition, at 10 µM, hits give high values"}
{"smiles": "CCOP(C)(=S)SCC(=O)NC(C)(CC)C(=O)O", "note": "(stereo not given)", "CPE inhibition": "inactive: 3.48%"}
{"smiles": "CP(=O)(Nc1ccc2c(c1)OCCO2)Oc1ccccc1", "note": "(stereo not given)", "CPE inhibition": "inactive: 0.92%"}
{"smiles": "Cc1ccccc1NP(C)(=O)Nc1ccccc1C", "CPE inhibition": "inactive: 0.88%"}
{"smiles": "CCN(CC)CC(O)COC(=O)C(O)(c1ccccc1)C1CCCCC1", "note": "(stereo not given)", "CPE inhibition": "inactive: -0.23%"}
{"smiles": "COc1ccc(OP(C)(=O)Nc2ccc(Br)cc2)cc1", "note": "(stereo not given)", "CPE inhibition": "inactive: 0.82%"}
{"smiles": "COc1ccccc1OP(C)(=O)Nc1c(C)n(C)n(-c2ccccc2)c1=O", "note": "(stereo not given)", "CPE inhibition": "inactive: 0.25%"}
{"smiles": "O=C(OCCCN1CCCC1)C(O)(c1ccccc1)C1CCCCC1", "note": "(stereo not given)", "CPE inhibition": "inactive: 0.48%"}
{"smiles": "CP(=O)(Oc1ccccc1)N1CCOC1=O", "note": "(stereo not given)", "CPE inhibition": "inactive: -0.69%"}
{"smiles": "CCc1ccc(OP(C)(=O)Nc2cccnc2)cc1", "note": "(stereo not given)", "CPE inhibition": "inactive: 3.72%"}
{"smiles": "COc1ccccc1OP(C)(=O)Nc1ccccc1Br", "note": "(stereo not given)", "CPE inhibition": "inactive: 0.36%"}
{"smiles": "CC(C)(C)c1ccc(OP(C)(=O)O)cc1", "CPE inhibition": "inactive: 0.89%"}
{"smiles": "CP(=O)(Nc1ccc(Cl)cc1)Oc1ccc(F)cc1", "note": "(stereo not given)", "CPE inhibition": "inactive: 1.23%"}
{"smiles": "CN(C)C(=O)c1c([N+](=O)[O-])cc([N+](=O)[O-])cc1[N+](=O)[O-]", "CPE inhibition": "inactive: -1.09%"}
{"smiles": "Nc1ccc2c(ccc3cccnc32)n1.O=[N+]([O-])c1cc([N+](=O)[O-])c(O)c([N+](=O)[O-])c1", "CPE inhibition": "inactive: 10%"}
{"smiles": "CCOC(=O)c1ccc(NP(C)(=O)Oc2ccc(Cl)cc2)cc1", "note": "(stereo not given)", "CPE inhibition": "inactive: 9.23%"}
{"smiles": "CP(=O)(OC12CC3CC(CC(C3)C1)C2)OC12CC3CC(CC(C3)C1)C2", "CPE inhibition": "inactive: -1.15%"}
{"smiles": "Cc1cc(C)cc(OP(C)(=O)Nc2cccc(C(F)(F)F)c2)c1", "note": "(stereo not given)", "CPE inhibition": "inactive: 13.2%"}
{"smiles": "COc1ccccc1OP(C)(=O)Nc1ccc(C)c(C)c1", "note": "(stereo not given)", "CPE inhibition": "inactive: 1.82%"}
{"smiles": "COc1ccc(OP(C)(=O)Nc2ccccc2Br)cc1", "note": "(stereo not given)", "CPE inhibition": "inactive: 1.49%"}
{"smiles": "Cc1nc2ccc3ccccc3c2o1.O=[N+]([O-])c1cc([N+](=O)[O-])c(O)c([N+](=O)[O-])c1", "CPE inhibition": "inactive: -0.72%"}
{"smiles": "CP(=O)(Nc1ccc(Cl)cc1Cl)Oc1ccccc1", "note": "(stereo not given)", "CPE inhibition": "inactive: -0.4%"}
{"smiles": "CP(=O)(OCCOc1ccccc1)OCCOc1ccccc1", "CPE inhibition": "inactive: 1.47%"}
{"smiles": "COc1ccccc1OP(C)(=O)Nc1ccc(Br)cc1", "note": "(stereo not given)", "CPE inhibition": "inactive: -0.5%"}
{"smiles": "COc1ccc(OP(C)(=O)Nc2ccccn2)cc1", "note": "(stereo not given)", "CPE inhibition": "inactive: -0.76%"}
{"smiles": "CN(C)CCOC(=O)C(O)(c1ccccc1)C1CCCC1", "note": "(stereo not given)", "CPE inhibition": "inactive: 1.57%"}
{"smiles": "Cc1c(NP(C)(=O)Oc2ccc(C(C)C)cc2)c(=O)n(-c2ccccc2)n1C", "note": "(stereo not given)", "CPE inhibition": "inactive: 0.62%"}
{"smiles": "O=[N+]([O-])c1cc([N+](=O)[O-])c(Nc2ccccn2)c([N+](=O)[O-])c1", "CPE inhibition": "inactive: -2.4%"}
{"smiles": "CP(=O)(Nc1ccccn1)Oc1ccccc1", "note": "(stereo not given)", "CPE inhibition": "inactive: 0.35%"}
{"smiles": "COc1ccccc1OP(C)(=O)Nc1ccc(C)cc1C", "note": "(stereo not given)", "CPE inhibition": "inactive: 0.7%"}
{"smiles": "CCc1ccc(OP(C)(=O)O)cc1", "CPE inhibition": "inactive: 2.35%"}
